Measured values from several laboratories, pooled; numbers as filed in NIAID ChemDB.

Shared fields: growth or infection tests; organism: Mycobacterium tuberculosis

Percent inhibition refers to the dose given; in toxicity tests it is the harm to the cells. Two numbers with a dash give a range or band. Neighbouring rows are from separate reports. An empty or dashed field is not shown. MIC bound: limit read from a one-dose screen. A number after MIC or MFC names an inhibition level or a share of isolates. ECn is the concentration giving n% inhibition of infection, replication or growth.

structure,tested at,cell line,read-out,changes,method,strain or isolate,value
Cc1cc(C)c(C#N)c(SC(C(=O)NC(C)(C)C)c2ccccc2)n1,,,MIC bound,,BACTEC,H37Rv,>12.5 µg/mL
CCCOc1ccc(NC(=O)OCCN2CCCC2)cc1,,,MIC,,,My 331/88,500 µM
O=C(O)c1cn(C2CC2)c2cc(N3CCN(C/C(=N/O)c4ccc(Br)cc4)CC3)c(F)cc2c1=O,,,EC50,,,H37Rv,<6.25 µg/mL
COc1ccc(NC(=O)OCCN2CCCCC2)cc1,,,MIC,,,My 331/88,250 µM
CCn1cc(C(=O)O)c(=O)c2cc(F)c(N3CCN(CC(=O)c4ccc(Br)cc4)CC3)cc21,6.25 µg/mL,VERO,inhibition,,,H37Rv,95%
CCCCn1c(-c2ccc(Cl)cc2Cl)cs/c1=N\NC(=O)COc1cnccn1,,,MIC,,,H37Rv,7.2 µg/mL
CCCCCOc1ccccc1NC(=O)OCCN1CCCCC1,,,MIC,,,My 331/88,32 µM
CC1(C)CC2CC(C)(CN2CCNCC23CC4CC(CC(C4)C2)C3)C1,,,MIC,,,,9.4 µM
COc1c(C(C)=O)cc(N)c2nc(C(C)C)ccc12,6.25 µg/mL,,inhibition,,,H37Rv,0%
CCCCCCCOc1cccc(NC(=O)OCCN2CCOCC2)c1,,,MIC,,,My 331/88,8 µM
c1csc(CCNCCNC2C3CC4CC(C3)CC2C4)c1,,,MIC,,,,25 µM
CO[C@H]1/C=C/O[C@@]2(C)Oc3c(C)c(O)c4c(O)c(c5c(c4c3C2=O)NC2(CCN(CC(C)C)CC2)N=5)=NC(=O)/C(C)=C\C=C\[C@H](C)[C@H](O)[C@@H](C)[C@@H](O)[C@@H](C)[C@H](OC(C)=O)[C@@H]1C,,,Mean MIC,,,H37Rv,0.034 µg/mL
CCn1cc(C(=O)O)c(=O)c2cc(F)c(N3CCN(C/C(=N/O)c4ccc(Br)cc4)CC3)cc21,6.25 µg/mL,,inhibition,,,H37Rv,16%
O=C(COc1cnccn1)N/N=c1\scc(-c2ccccc2)n1-c1ccc(Cl)cc1[N+](=O)[O-],,,MIC,,,H37Rv,5.2 µg/mL
C=CCCCC#CCC#CCCCCCCCC(=O)NN,,,MIC,,,,>200 µg/mL
CCCCCCCOc1cccc(NC(=O)OCCN(C)C)c1,,,MIC,,,My 331/88,16 µM
Nc1cccc2c(C3CCCCC3)cc(C3CCCCC3)nc12,6.25 µg/mL,,inhibition,,,H37Rv,0%
CO[C@H]1/C=C/O[C@@]2(C)Oc3c(C)c(O)c4c(O)c(c(/C=N/N5CCN(C6CCCC6)CC5)c(O)c4c3C2=O)NC(=O)/C(C)=C\C=C\[C@H](C)[C@H](O)[C@@H](C)[C@@H](O)[C@@H](C)[C@H](OC(C)=O)[C@@H]1C,,,Median MIC,,,H37Rv,0.013 µg/mL
NNC(=O)C(=O)n1ccnc1,12.5 µg/mL,,inhibition,,BACTEC,H37Rv,30%
S=C(NCN1CCOCC1)c1cncc(-n2ccnc2)n1,,,MIC,,,SP 607,125 µg/mL
CCCCC(CC)CN1CN(CC(CC)CCCC)CC(C)(NCCN[C@H](CO)Cc2ccccc2)C1,,,MIC,,,,25 µM
CO[C@H]1/C=C/O[C@@]2(C)Oc3c(C)c(O)c4c(O)c(c(/C=N/N5CCN(C6CCCC6)CC5)c(O)c4c3C2=O)NC(=O)/C(C)=C\C=C\[C@H](C)[C@H](O)[C@@H](C)[C@@H](O)[C@@H](C)[C@H](OC(C)=O)[C@@H]1C,,,MIC,,,1024,0.16 µg/mL
CC(C)n1c(-c2ccc(F)cc2)cs/c1=N\NC(=O)COc1cnccn1,,,MIC,,,H37Rv,21 µg/mL
CC(C)=NNC(=O)CNC(=O)c1ccccc1,,,MIC,,,,>200 µg/mL
O=C1C2=C(C(=O)c3ccccc31)C(O)(S(=O)(=O)O)C(O)(S(=O)(=O)O)C1N=CC=CC21,,,MIC bound,,BACTEC,H37Rv,>12.5 µg/mL
CC1COc2c(N3CCN(C)CC3)c(F)cc3c(=O)c(C(=O)O)cn1c23,,,MIC,,,H37RV (DRUG-SUS),1 µg/mL
NC[C@@H]1O[C@H](O[C@H]2[C@@H](O)[C@H](O[C@@H]3[C@@H](O)[C@H](N)C[C@H](N)[C@H]3O[C@H]3O[C@H](CO)[C@@H](O)C[C@H]3N)O[C@@H]2CO)[C@H](N)[C@@H](O)[C@@H]1O[C@H]1O[C@H](CO)[C@@H](O)[C@H](O)[C@@H]1O,,,EC50,,,H37Rv (ethambutol-resistant),25–50 µg/mL
C[C@@H]1[C@H]2C[C@@H](C[C@H]1NCCN[C@H]1C[C@H]3CC[C@]1(C)C3(C)C)C2(C)C,,,MIC,,,,12.5 µM
CC(C)=NNC(=O)c1ccc(N)cc1O,,,MIC,,,,>200 µg/mL
CCCCCCOc1ccc(NC(=O)OCCN(C)C)cc1,,,MIC,,,My 331/88,32 µM
O=C1/C(=N\NC(=O)c2ccccc2)C(C(O)CO)O/C1=N/NC(=O)c1ccccc1,,,MIC,,,,1 µg/mL
O=C(COc1cnccn1)N/N=c1\scc(-c2ccccc2)n1-c1ccc(Cl)cc1Cl,,,MIC,,,H37Rv,23 µg/mL
Cc1cc2c(c3c1c(=O)c1ccccc1n3C)C=CC(C)(C)O2,,,MIC,,BACTEC,H37Rv,≥12.5 µg/mL
CCCCCCCCOc1c(C(C)=O)cc(N)c2nccc(CC)c12,,,MIC,,,Rifampicin-resistant,6.25 µg/mL
CCCCn1c(-c2ccc(OC)cc2)cs/c1=N\NC(=O)COc1cnccn1,,,MIC,,,H37Rv,18 µg/mL
NC(=S)c1ncc(N)s1,,,MIC bound,,BACTEC,H37Rv,>12.5 µg/mL
N#Cc1cncc(-n2cncn2)n1,,,MIC,,,Ethionamide-resistant,500 µg/mL
O=C(N/N=C/c1ccccc1F)c1ccc(F)cc1,6.25 µg/mL,,inhibition,,,H37Rv,35%
O=C(Nc1cccc2c(C3CCCCC3)cc(C3CCCCC3)nc12)C(F)(F)F,6.25 µg/mL,,inhibition,,,H37Rv,96%
C[C@@H]1CN(c2c(F)c(N)c3c(=O)c(C(=O)O)cn(C4CC4)c3c2F)C[C@H](C)N1,,,MIC,,,900241,0.1 µg/mL
O=C(SCc1oc2ccccc2c1O)c1ccccc1,12.5 µg/mL,,inhibition,,BACTEC,H37Rv,55%
Nc1ccc(C(=O)O)c(O)c1,,,Median MIC,,,H37Ra,>2 µg/mL
Cc1ccc(NC(=O)CCc2nnc(N)o2)cc1,12.5 µg/mL,,inhibition,,BACTEC,H37Rv,0%
CCCCCCCCCCOc1ccc(NC(=O)OCC[NH+]2CCCC2)cc1,,,MIC,,,My 331/88,16 µM
COc1c(C(C)=O)cc([N+](=O)[O-])c2nc(C(C)(C)C)ccc12,,,MIC,,,H37Rv,>6.25 µg/mL
CC(=O)C1(N=Nc2ccc(S(=O)(=O)Nc3nnc(C)s3)cc2)CCOC1=O,12.5 µg/mL,,inhibition,,BACTEC,H37Rv,30%
NC(=S)c1cncc(-n2ccnc2)n1,,,MIC,,,SP 607,250 µg/mL
CN1CCCCC1CCN1c2ccccc2Sc2ccc(S(C)=O)cc21,12.5 µg/mL,,inhibition,,BACTEC,H37Rv,9%
O=C(N/N=C/c1cccs1)c1ccc([N+](=O)[O-])cc1,,,MIC,,,H37Rv,>6.25 µg/mL
CO[C@H]1/C=C/O[C@@]2(C)Oc3c(C)c(O)c4c(O)c(c(/C=N/N5CCN(C)CC5)c(O)c4c3C2=O)NC(=O)/C(C)=C\C=C\[C@H](C)[C@H](O)[C@@H](C)[C@@H](O)[C@@H](C)[C@H](OC(C)=O)[C@@H]1C,,,MIC90,EJMCh4/1 MmpL3 (V285A),visual reading / absorbance,H37Rv,0.6 µM
Cc1ccc(NC2=CC(=O)C(=O)c3ccccc32)cc1C,,,MIC,,resazurin,H37Rv,≤0.1 µg/mL
CC1CCCCN1c1cncc(/C(N)=N/O)n1,,,MIC,,,Capreomycin-resistant,250 µg/mL
C[C@@H]1Cn2cc(C(=O)O)c(=O)c3cc(F)c(N4CCN(/C(N)=N/C(N)=NCCCCCCN=C(N)/N=C(\N)N5CCN(c6c(F)cc7c(=O)c(C(=O)O)cn8c7c6O[C@@H](C)C8)CC5)CC4)c(c32)O1,,,MIC,,broth dilution,ATCC 35820,0.625 µg/mL
NNc1nc2ccccc2c(=O)n1NC(=O)C(=O)Nc1cccc(C(F)(F)F)c1,,,MIC bound,,BACTEC,H37Rv,>12.5 µg/mL
C[C@@H]1CN(c2c(F)c(N)c3c(=O)c(C(=O)O)cn(C4CC4)c3c2F)C[C@H](C)N1,,,MIC50,,,100 isolates,0.25 µg/mL
CCCCOc1c(C(C)=O)cc([N+](=O)[O-])c2nccc(CC)c12,6.25 µg/mL,,inhibition,,,H37Rv,0%
CC(C)=CCC/C(C)=C/Cc1cc2ccc(=O)oc2cc1O,6.25 µg/mL,,inhibition,,BACTEC,H37Rv,56%
O=C(N/N=C/c1ccc(Cl)cc1)c1ccc(F)cc1,6.25 µg/mL,,inhibition,,,H37Rv,28%
Cc1cc2nc(CCC3CCCCC3)[nH]c2cc1C,,,MIC90,6C MmpL3 (G253E),visual reading / absorbance,H37Rv,1.93 µM
C[C@@]12C[C@@]3(O)O[C@@H](O1)[C@]1(COC(=O)c4ccccc4)[C@H]3C[C@@]12O[C@@H]1O[C@H](CO)[C@@H](O)[C@H](O)[C@H]1O,12.5 µg/mL,,inhibition,,BACTEC,H37Rv,7%
CC1CN(c2cncc(C#N)n2)CC(C)O1,,,MIC,,,H37Rv,500 µg/mL
CC(=O)O[C@H]1CC[C@@]2(C)[C@H](CC[C@@H]3[C@@H]2CC[C@]2(C)[C@@H]4[C@H](C[C@@H]32)O[C@]2(CC[C@@H](C)CO2)[C@H]4C)C1,,,MIC,,BACTEC,H37Rv,≥128 µg/mL
CCCCCC1(C)Cn2cc([N+](=O)[O-])nc2O1,,,MIC,,,H37Rv-14A1 (PA-824-resistant),3.2 µM
CC(=O)Nc1ccc2cc(-c3ccc(Cl)cc3)c3nnnn3c2n1,12.5 µg/mL,,inhibition,,BACTEC,H37Rv,0%
O=C(N/N=C/c1ccc[nH]1)c1ccc(F)cc1,6.25 µg/mL,,inhibition,,,H37Rv,0%
COc1ccc(N2C(=Nc3ccccc3)SC(=N\S(=O)(=O)c3ccccc3)/C2=N\S(=O)(=O)c2ccccc2)cc1,,,MIC bound,,resazurin,H37Rv,>6.25 µg/mL
CNC1CCCN(c2c(F)cc3c(=O)c(C(=O)O)cn(C4CC4)c3c2OC)C1,,,MIC50,,,100 isolates,2 µg/mL
CC(=O)c1cc([N+](=O)[O-])c2ncccc2c1C1CCCC1,6.25 µg/mL,,inhibition,,,H37Rv,0%
CCC1Cn2cc([N+](=O)[O-])nc2O1,,,MIC,,,H37Rv-T2-3547 (PA-824-resistant),0.4 µM
C[C@@H]1[C@H]2C[C@@H](C[C@H]1NCCNC(c1ccccc1)c1ccccc1)C2(C)C,,,MIC,,,,12.5 µM
NNC(=O)c1ccncc1,,,Mean MIC,,,H37Rv,0.05 µg/mL
CC1=NN(C(=O)c2cccnc2)C(=O)C1N=Nc1ccc(S(=O)(=O)Nc2ccccn2)cc1,12.8 µg/mL,,inhibition,,BACTEC,H37Rv,14%
COc1ccc(C(=O)CN2CCN(c3cc4c(cc3F)c(=O)c(C(=O)O)cn4C3CC3)CC2)cc1,,,MIC,,,H37Rv,>6.25 µg/mL
CCCCOc1cccc(NC(=O)OCCN2CCCCCC2)c1,,,MIC,,,My 331/88,16 µM
CC(C)(C)c1ccc2cccc([N+](=O)[O-])c2n1,6.25 µg/mL,,inhibition,,,H37Rv,12%
Brc1ccc2nc(CCC3CCCCC3)[nH]c2c1,,,MIC90,,visual reading / absorbance,H37Rv,2.44 µM
Nc1cc(Cl)cc2[nH]c(=O)c3cc(Cl)ccc3c12,12.5 µg/mL,,inhibition,,BACTEC,H37Rv,92%
CC1CCC(NCCNCCCCc2ccccc2)CC1,,,MIC,,,,50 µM
Cc1ccc(Nc2nc(N)nc(N)c2N)cc1Cl.O=S(=O)(O)O,12.5 µg/mL,,inhibition,,BACTEC,H37Rv,2%
CC(CNCCc1ccccc1F)NCCC1=CCCCC1,,,MIC,,,,50 µM
C/C(=N\NC(=S)SCc1ccccc1)c1ccccn1,,,MIC bound,,BACTEC,H37Rv,≤128 µg/mL
CC(=O)c1cc([N+](=O)[O-])c2nc(C(C)C)ccc2c1C(C)C,,,MIC,,,H37Rv,6.25 µg/mL
O=C(NNS(=O)(=O)c1ccc([N+](=O)[O-])cc1)c1ccccc1,,,MIC,,,,200 µg/mL